Peptide text beside a SMILES is read from it. * marks the point of attachment. Myristoyl = CCCCCCCCCCCCCC(=O)*
Experiment: Coupling efficiency on NHS-activated agarose beads
Conditions: mg per ml adsorbent, 400 μL peptide solution 1 mg/mL, 2 h room temperature, PBS pH 7.4, Pierce 660 nm protein assay
For `CCCCCCCCCCCCCC(=O)N[C@@H](Cc1ccccc1)C(=O)N[C@@H](Cc1c[nH]c2ccccc12)C(=O)N[C@@H](CCCNC(=N)N)C(=O)N[C@@H](CCCNC(=N)N)C(=O)N[C@@H](Cc1ccccc1)C(=O)N[C@@H](Cc1c[nH]c2ccccc12)C(=O)N[C@@H](CCCNC(=N)N)C(=O)N[C@@H](CCCNC(=N)N)C(N)=O` [LF11-227-C14] (Myristoyl-FWRRFWRR-NH2), the “Coupling Efficiency” value was 0.31 ± 0.11 mg/mL. With `CCCCCCCCCCCCCC(=O)N1CCC[C@H]1C(=O)N[C@@H](Cc1ccccc1)C(=O)N[C@@H](Cc1c[nH]c2ccccc12)C(=O)N[C@@H](CCCNC(=N)N)C(=O)N[C@H](C(=O)N[C@@H](CCCNC(=N)N)C(=O)N[C@H](C(=O)N[C@@H](CCCNC(=N)N)C(=O)N[C@@H](CCCNC(=N)N)C(N)=O)[C@@H](C)CC)[C@@H](C)CC` [LF11-322-C14] (Myristoyl-PFWRIRIRR-NH2) the “Coupling Efficiency” value was 0.25 ± 0.09 mg/mL. In the case of H-FWRRFWRR-NH2 [LF11-227-NH2], the “Coupling Efficiency” value is reported as 1.57 ± 0.27 mg/mL. In the case of H-PFWRIRIRR-NH2 [LF11-322-NH2], the “Coupling Efficiency” value is reported as 1.67 ± 0.31 mg/mL. For Polymyxin B [PMB, reference compound], the “Coupling Efficiency” value was 1.68 ± 0.23 mg/mL.
